# Measurements: US20100285095A1 (priority 2009, published 2010)
# Test system: S. aureus MN 8
# Format: cell-based, Staphylococcus aureus
row,Compound,Change in S. aureus cfu/mL vs. control
1,O=C([O-])C(O)CO.O=C([O-])C(O)CO.[Ca+2] [calcium D-glycerate],<2 log
2,O=C(O)C(O)CO (stereo not drawn) [calcium glycerate],<2 log
3,calcium gluconate,<2 log
